US11118200B2, “Method for preparing amines from aldehydes and ketones by biocatalysis” (COMMISSARIAT A L'ENERGIE ATOMIQUE ET AUX ENERGIES …, priority 2017, dated 2021)

Tests used:
[1] = system: enzyme of SEQ ID NO:2; experiment: Reductive amination on 9 μmol scale, configuration of the amine product (UHPLC-UV-MS, chiral GC-FID); format: biochemical, Cystobacter fuscus DSM 2262; conditions: 48 h at 30° C.; for diastereoisomeric excess of the (1S)-amine formed, enzyme of SEQ ID NO:2: chiral GC-FID
[2] = system: enzyme of SEQ ID NO:1; experiment: as above; format: biochemical, Mycobacterium smegmatis; conditions: 48 h at 30° C.; for diastereoisomeric excess of the (1S)-amine formed, enzyme of SEQ ID NO:1: chiral GC-FID
[3] = system: enzyme of SEQ ID NO:1; experiment: Semi-preparative-scale reductive amination (1 mmol) with ammonia as amine source; format: biochemical, Mycobacterium smegmatis; conditions: for Conversion, SEQ ID NO: 1: 50 mM carbonyl-containing compound, 30° C.; for Conversion, SEQ ID NO: 1 / TTN (total turnover), SEQ ID NO: 1: enzyme loading 0.3 mg/mL
[4] = system: enzyme of SEQ ID NO:2; experiment: as above; format: biochemical, Cystobacter fuscus DSM 2262; conditions: chiral GC-FID
[5] = 30 mM carbonyl-containing compound, 0.5 mg/ml enzyme, ammonia as amine source
[6] = racemic ketone 30 mM, 0.5 mg/ml enzyme
[7] = chiral GC-FID, semi-preparative scale

Structure (SMILES): CC1CCCCC1=O (racemic) [2-methylcyclohexanone]
- enantiomeric excess of the (S)-amine formed, enzyme of SEQ ID NO:2 [1, 5]: 99%
- diastereoisomeric excess of the (1S)-amine formed, enzyme of SEQ ID NO:2 [1, 6]: 69%
- enantiomeric excess of the (S)-amine formed, enzyme of SEQ ID NO:1 [2, 5]: 91%
- diastereoisomeric excess of the (1S)-amine formed, enzyme of SEQ ID NO:1 [2, 6]: 91%
- Conversion, SEQ ID NO: 1 [3]: 55%
- TTN (total turnover), SEQ ID NO: 1 [3]: 6847

Structure (SMILES): CC1CCCC(=O)C1 (racemic) [3-methylcyclohexanone]
- diastereoisomeric excess of the (1S)-amine formed, enzyme of SEQ ID NO:2 [1, 6]: 95%
- diastereoisomer preferentially formed, enzyme of SEQ ID NO:2 ([1]; racemic ketone 30 mM): (1S, 3R)-3-methylcyclohexylamine
- diastereoisomeric excess of the (1S)-amine formed, enzyme of SEQ ID NO:1 [2, 6]: > 97%
- diastereoisomer preferentially formed, enzyme of SEQ ID NO:1 ([2]; racemic ketone 30 mM): (1S, 3R)-3-methylcyclohexylamine
- Conversion, SEQ ID NO: 1 [3]: 45%
- TTN (total turnover), SEQ ID NO: 1 [3]: 5933

Structure (SMILES): C[C@@H]1CCC[C@H](N)C1.Cl [(1S, 3R)-3-methylcyclohexylamine hydrochloride]
- cis/trans product ratio, SEQ ID NO: 1 [3, 7]: 97/3
- ed of the amine obtained, SEQ ID NO: 1 [3, 7]: ≥ 99%

Structure (SMILES): CCC[C@H](C)N [(2S)-pentan-2-amine]
- ee of the amine obtained, SEQ ID NO: 2 [4]: ≥ 97%
